# Deep mutational scan of the Zika virus protease

Values reported by Ni et al. 2025 (doi:10.1038/s41467-025-63602-z).

Chain scanned (Zika virus MR766; NS2B from position 2 to 131, then the start of NS3):
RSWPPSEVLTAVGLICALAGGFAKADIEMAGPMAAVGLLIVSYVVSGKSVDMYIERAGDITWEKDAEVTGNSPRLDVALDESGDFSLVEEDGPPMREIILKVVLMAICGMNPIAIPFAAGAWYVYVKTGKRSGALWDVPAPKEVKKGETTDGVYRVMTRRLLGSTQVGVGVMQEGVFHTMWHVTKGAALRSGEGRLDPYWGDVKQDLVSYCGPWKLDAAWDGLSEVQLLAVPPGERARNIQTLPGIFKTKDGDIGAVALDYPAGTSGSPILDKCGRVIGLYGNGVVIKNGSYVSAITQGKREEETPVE

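Libraries of single mutants were passaged as virus pools on Huh-7.5 cells. Sequencing of three replicate libraries (two for positions 207-308) was averaged into one effect per change.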

Scale: log2 effect, wild type = 0; the lower, the more harmful to the virus.
Each entry names the wild-type residue, its position and the residue put in its place.
Position 1 still belongs to NS2A. In the paper, -1 or higher counts as tolerated.
An asterisk is a stop codon; stop codons read about -7, near the floor of the assay.
Values above 0 are not proof of better growth: six high scorers were tested one by one, five grew less well than wild type and one about as well.
Positions 1-103, 104-206 and 207-308 were made and measured as separate libraries.

change | log2 growth effect
G168* | -4.43
G168A | -5.75
G168C | -3.99
G168D | -4.75
G168E | -4.66
G168F | -4.59
G168H | -4.74
G168I | -4.84
G168K | -5.00
G168L | -6.54
G168M | -5.07
G168N | -4.83
G168P | -6.17
G168Q | -4.25
G168R | -6.21
G168S | -6.59
G168T | -5.93
G168V | -2.83
G168W | -4.64
G168Y | -4.96
V169* | -7.39
V169A | -0.73
V169C | -0.90
V169D | -5.27
V169E | -5.72
V169F | -5.68
V169G | -6.75
V169H | -5.28
V169I | -2.68
V169K | -5.45
V169L | -7.44
V169M | -5.72
V169N | -5.14
V169P | -6.97
V169Q | -6.06
V169R | -7.18
V169S | -5.60
V169T | -6.76
V169W | -5.40
V169Y | -5.05
G170* | -4.28
G170A | -6.82
G170C | -5.64
G170D | -5.24
G170E | -4.94
G170F | -5.58
G170H | -5.09
G170I | -5.12
G170K | -5.84
G170L | -7.20
G170M | -5.63
G170N | -5.36
G170P | -6.84
G170Q | -5.82
G170R | -7.16
G170S | -7.13
G170T | -6.71
G170V | -4.80
G170W | -5.84
G170Y | -5.65
V171* | -6.67
V171A | -5.39
V171C | -5.41
V171D | -5.19
V171E | -5.18
V171F | -5.56
V171G | -6.64
V171H | -5.48
V171I | -3.30
V171K | -4.83
V171L | -6.89
V171M | -4.87
V171N | -4.91
V171P | -6.59
V171Q | -5.31
V171R | -6.88
V171S | -6.94
V171T | -6.31
V171W | -5.17
V171Y | -5.00

Excerpt, the final 10 entries:

{"change": "V171L", "log2 growth effect": -6.89}
{"change": "V171M", "log2 growth effect": -4.87}
{"change": "V171N", "log2 growth effect": -4.91}
{"change": "V171P", "log2 growth effect": -6.59}
{"change": "V171Q", "log2 growth effect": -5.31}
{"change": "V171R", "log2 growth effect": -6.88}
{"change": "V171S", "log2 growth effect": -6.94}
{"change": "V171T", "log2 growth effect": -6.31}
{"change": "V171W", "log2 growth effect": -5.17}
{"change": "V171Y", "log2 growth effect": -5.00}